Anti-infective test results gathered from many reports (values: NIAID ChemDB through PubChem).

Common to all: toxicity to cultured cells; cell line: HepG2; endpoint: CC50

Lines come from different laboratories, so protocols vary. a–b is a range or a potency band. An empty or dashed field is not shown. CCn is the concentration with n% toxicity to the cells.

compound	read by	value
CC(C)C[C@@H]1NC(=O)[C@H](Cc2c[nH]c3ccccc23)NC(=O)CNC(=O)[C@H](CC(N)=O)NC(=O)[C@H](C(C)C)NC(=O)[C@H](CC(C)C)NC1=O	MTT	>30 µM
Cc1c(C(=O)Nc2ccc(F)c(C3CC3)c2)c(C)n(C)c1C(=O)C(=O)NC1(C)CCC(O)CC1	MTT	>30 µM
COc1ccc(F)cc1CNCCCNc1ccnc2cc(Oc3ccc(C(C)(C)C)cc3)ccc12	fluorescence	7.2 µM
O=C(Nc1ccc(Cl)cc1)Nc1ccc(Nc2ccccc2)cc1	luminescence	>100 µM
CCCC=C1c2ccccc2Sc2ccccc21	resazurin	14 µg/mL
CCOC(OCC)C(=O)NCCc1ccc(OC)c(OC)c1		<7.5 µM
CCNc1ccnc2sc(C(=O)Cc3ccccc3)c(N)c12	luminescence	42 µM
CCCCCN1C2=C(Sc3ccccc31)C(=O)OC2	resazurin	>32 µg/mL
c1coc(CNCCCNc2ccnc3cc(-c4cccc5ccccc45)ccc23)c1	fluorescence	5.6 µM
CCc1c(C(=O)Nc2ccc(F)c(C)c2)c(C)n(C)c1C(=O)C(=O)NC1CCN(c2cccnn2)CC1	MTT	>30 µM
c1ccc(N2c3ccccc3Sc3ccccc32)cc1	resazurin	>32 µg/mL
CC[C@H](C)[C@@H]1NC(=O)[C@@H](CC(C)C)NC(=O)[C@H](CC(C)C)NC(=O)[C@H](Cc2c[nH]c3ccccc23)NC(=O)CNC(=O)[C@H](CC(N)=O)NC1=O	MTT	>30 µM
Cc1cc(NC(=O)c2c(C)c(C(=O)C(=O)NC3(C)CCC(O)CC3)n(C)c2-c2ccccn2)ccc1F	MTT	>30 µM
Clc1c(-c2ccccc2)nc2ccccn12	fluorescence	>100 µM
COc1ccc(F)cc1CNCCCNc1ccnc2cc(Oc3ccc(Cl)cc3)ccc12	fluorescence	4.5 µM
CC(=O)Oc1c(C(=O)Oc2ccccc2)c2c(c3ccccc13)OC(C)(C)CC2	MTT	12.5 µg/mL
COc1ccc(Oc2ccc3c(NCCCNCc4ccco4)ccnc3c2)cc1	fluorescence	5.3 µM
COC(=O)c1c(CC=C(C)C)c(O)c2ccccc2c1O	MTT	6.25 µg/mL
CCCNCc1cccc(OCCCCCC(=O)OCC)c1		>20 µM
COc1cccc(CNCCCNc2ccnc3cc(Oc4ccccc4)ccc23)c1O	fluorescence	6.8 µM
O=C(Nc1ccc(C(F)(F)F)cc1)Nc1cccc(Cl)c1	luminescence	5.6 µM
CC(C)C[C@@H]1NC(=O)[C@H](Cc2c[nH]c3ccccc23)NC(=O)C(C)(C)NC(=O)[C@H](CCCCN)NC(=O)[C@H](C(C)C)NC(=O)[C@@H](CC(C)C)NC1=O	MTT	>30 µM
COc1ccc(CCNC(=O)CCCCC(C)=O)cc1OC		<7.5 µM
COc1ccc2c3c(ccc(OC)c13)C1C3=C(Nc4ncnn41)c1cc(Cl)ccc1OC32	luminescence	>50 µM
CC(=O)N1CC[C@@H](NC(=O)C(=O)c2c(C)c(C(=O)Nc3ccc(F)c(C)c3)c(C)n2C)C[C@H]1C	MTT	>30 µM
CCCN(Cc1cccc(OCCCCCC(=O)OCC)c1)C(=O)c1ccc(Br)cc1		>20 µM
CC1(C)CCc2c(C(=O)Oc3ccccc3)c(O)c3ccccc3c2O1	MTT	12.5 µg/mL
c1coc(CNCCCNc2ccnc3cc(CC4CCCCC4)ccc23)c1	fluorescence	1.7 µM
CCOC(=O)CC(=O)NCCc1ccc(OC)c(OC)c1		<7.5 µM
CC(C)C[C@@H]1NC(=O)[C@H](Cc2c[nH]c3ccccc23)NC(=O)[C@@H](CCCN=C(N)N)NC(=O)[C@H](CC(N)=O)NC(=O)[C@H](C(C)C)NC(=O)[C@@H](CC(C)C)NC1=O	MTT	>30 µM
O=C(c1c(F)cccc1F)N1CCN(c2cc(N3CCCCCC3)c(F)cc2[N+](=O)[O-])CC1	luminescence	>50 µM
CCCN(Cc1cccc(OCCCCCC(=O)OCC)c1)C(=O)c1ccc(-c2ccc3c(c2)OCO3)cc1		>20 µM
CC(C)(C)c1ccc(Oc2ccc3c(NCCCNCc4ccco4)ccnc3c2)cc1	fluorescence	3.1 µM
Cc1cc(NC(=O)c2c(C)c(C(=O)C(=O)NC34CC(C3)C4)n(C)c2C)ccc1F	MTT	5–30 µM
CC(C)N(Cc1cccc(OCCCCCC(=O)OC(=O)O)c1)C(=O)c1ccc(-c2cccc(N(C)C)c2)cc1		>20 µM
CCC(C)[C@@H]1NC(=O)[C@@H](C(C)CC)NC(=O)[C@H](CC(C)C)NC(=O)[C@H](Cc2c[nH]c3ccccc23)NC(=O)CNC(=O)[C@H](CC(N)=O)NC1=O	MTT	>30 µM
Fc1ccccc1-c1nc2ccn(Cc3ccc(-c4ccc(C(F)(F)F)cc4C(F)(F)F)nn3)cc-2n1	MTT	25 µg/mL
Cc1cc(NC(=O)c2c(C)c(C(=O)C(=O)NC3CCC(O)CC3)n(C)c2-c2ccsc2)ccc1F	MTT	5–30 µM
COC(=O)c1c2c(c3ccccc3c1O)OC(C)(C)CC2	MTT	6.25 µg/mL
Cc1c(C(=O)Nc2cccc(Cl)n2)c(C)n(C)c1C(=O)C(=O)NC1CCC(O)CC1	MTT	>30 µM
COc1ccc(C=C2c3ccccc3Sc3ccccc32)cc1C	resazurin	15 µg/mL
CC(C)N(Cc1ccc(OCC(=O)O)cc1)C(=O)c1ccc(-c2ccc3c(c2)OCO3)cc1		>20 µM

5 of the rows above, restated:

compound,read by,value
COc1cccc(CNCCCNc2ccnc3cc(Oc4ccccc4)ccc23)c1O,fluorescence,6.8 µM
CC(C)C[C@@H]1NC(=O)[C@H](Cc2c[nH]c3ccccc23)NC(=O)[C@@H](CCCN=C(N)N)NC(=O)[C@H](CC(N)=O)NC(=O)[C@H](C(C)C)NC(=O)[C@@H](CC(C)C)NC1=O,MTT,>30 µM
CC(=O)Oc1c(C(=O)Oc2ccccc2)c2c(c3ccccc13)OC(C)(C)CC2,MTT,12.5 µg/mL
CCCCCN1C2=C(Sc3ccccc31)C(=O)OC2,resazurin,>32 µg/mL
COc1ccc(CCNC(=O)CCCCC(C)=O)cc1OC,,<7.5 µM